Anti-infective test results gathered from many reports (values: NIAID ChemDB through PubChem).

Common to all: growth or infection tests; species: Herpes simplex virus 2

Neighbouring rows are from separate reports. Inhibition is in % at the dose shown (toxicity tests: loss of growth or viability). ECn: concentration that inhibits the pathogen or its effect by n%.

O=C(O)CP(=O)(O)O ; read by: cytopathic effect ; dose: 71.4 µM ; read-out: inhibition ; strain or isolate: TK- ; cell line: VERO ; result: >25%
COC(=O)C1(C)CCC[C@]2(C)c3cc(OC)c(C=O)cc3CC[C@@H]12 ; read by: plaque count ; dose: 100 µM ; read-out: inhibition ; cell line: VERO ; result: 100%
O=c1[nH]c(=O)n([C@H]2C[C@H](O)[C@@H](CO)O2)cc1/C=C/Br ; read-out: MIC ; strain or isolate: 196 ; result: >1000 µM
COc1c2c(cc3ccoc13)C(=O)[C@H]1c3cc4c(cc3OC[C@H]1O2)OCO4 ; read by: plaque count ; dose: 50 µg/mL ; read-out: inhibition ; strain or isolate: 186 ; cell line: VERO ; result: 15.5%
O=c1[nH]c(=O)n([C@H]2C[C@H](O)[C@@H](CO)O2)cc1I ; read by: cytopathic effect ; dose: 2.8 µM ; read-out: inhibition ; strain or isolate: K979 ; cell line: VERO ; result: >25%
CC(C)[C@H](NC(=O)[C@@H](N)Cc1ccccc1)C(=O)OCCOCn1cnc2c(=O)[nH]c(N)nc21 ; read-out: MIC ; strain or isolate: 196 ; result: 1.6 µM
O=c1[nH]c(=O)n([C@H]2C[C@H](O)[C@@H](CO)O2)cc1CCCl ; read by: cytopathic effect ; dose: 102 µM ; read-out: inhibition ; strain or isolate: K979 ; cell line: VERO ; result: >25%
CC(C)[C@H](NC(=O)CN)C(=O)OCCOCn1cnc2c(=O)[nH]c(N)nc21 ; read-out: MIC ; strain or isolate: 196 ; result: 1.3 µM
O=C(O)P(=O)(O)O ; read by: cytopathic effect ; dose: 238 µM ; read-out: inhibition ; strain or isolate: K979 ; cell line: VERO ; result: >25%
C[C@H](NC(=O)CN)C(=O)OCCOCn1cnc2c(=O)[nH]c(N)nc21 ; read-out: MIC ; strain or isolate: 196 ; result: 0.96 µM
O=C1c2cc3ccoc3cc2O[C@@H]2COc3cc4c(cc3[C@H]12)OCO4 ; read by: plaque count ; dose: 50 µg/mL ; read-out: inhibition ; strain or isolate: 186 ; cell line: VERO ; result: 24.4%
O=C(O)P(=O)(O)O ; read by: plaque count ; dose: 500 µM ; read-out: inhibition ; strain or isolate: V10183 ; cell line: SIRC ; result: >99.9%
Nc1nc(N)c2ncn(CCOCP(=O)(O)O)c2n1 ; read by: cytopathic effect ; read-out: EC50 ; strain or isolate: ACV-resistant ; cell line: HEL ; result: 2.5 µg/mL
COc1c2c(cc3ccoc13)C(=O)[C@@]1(O)c3cc4c(cc3OC[C@H]1O2)OCO4 ; read by: plaque count ; dose: 50 µg/mL ; read-out: inhibition ; strain or isolate: 186 ; cell line: VERO ; result: 56.3%
Nc1nc2c(ncn2CCC(CO)CO)c(=O)[nH]1 ; read by: cytopathic effect ; read-out: EC50 ; strain or isolate: G ; cell line: HEL ; result: 0.08 µg/mL
COP(=O)(CC(=O)OC[C@H]1O[C@@H](n2cc(I)c(=O)[nH]c2=O)C[C@@H]1O)OC ; read by: cytopathic effect ; dose: 5.9 µM ; read-out: inhibition ; strain or isolate: K979 ; cell line: VERO ; result: >25%
CC(C)[C@H](NC(=O)[C@H](C)N)C(=O)OCCOCn1cnc2c(=O)[nH]c(N)nc21 ; read-out: MIC ; strain or isolate: 196 ; result: 1.3 µM
O=C(O)CP(=O)(O)O ; read by: plaque count ; dose: 100 µM ; read-out: inhibition ; strain or isolate: 91075 ; cell line: SIRC ; result: 96%
O=C(O)CP(=O)(O)O ; read by: cytopathic effect ; read-out: EC50 ; strain or isolate: PCV-resistant/B ; cell line: HEL ; result: 4.2 µg/mL
COP(=O)(CC(=O)O[C@H]1C[C@H](n2cc(CCCl)c(=O)[nH]c2=O)O[C@@H]1CO)OC ; read by: cytopathic effect ; dose: 22.7 µM ; read-out: inhibition ; strain or isolate: K979 ; cell line: VERO ; result: >25%